# In ChEMBL document CHEMBL4421733, “Inhibitors of eya2” (2012):
# Target: T1, Protein phosphatase EYA2 (Homo sapiens) (UniProt O00167)
# T1 sequence (whole entry): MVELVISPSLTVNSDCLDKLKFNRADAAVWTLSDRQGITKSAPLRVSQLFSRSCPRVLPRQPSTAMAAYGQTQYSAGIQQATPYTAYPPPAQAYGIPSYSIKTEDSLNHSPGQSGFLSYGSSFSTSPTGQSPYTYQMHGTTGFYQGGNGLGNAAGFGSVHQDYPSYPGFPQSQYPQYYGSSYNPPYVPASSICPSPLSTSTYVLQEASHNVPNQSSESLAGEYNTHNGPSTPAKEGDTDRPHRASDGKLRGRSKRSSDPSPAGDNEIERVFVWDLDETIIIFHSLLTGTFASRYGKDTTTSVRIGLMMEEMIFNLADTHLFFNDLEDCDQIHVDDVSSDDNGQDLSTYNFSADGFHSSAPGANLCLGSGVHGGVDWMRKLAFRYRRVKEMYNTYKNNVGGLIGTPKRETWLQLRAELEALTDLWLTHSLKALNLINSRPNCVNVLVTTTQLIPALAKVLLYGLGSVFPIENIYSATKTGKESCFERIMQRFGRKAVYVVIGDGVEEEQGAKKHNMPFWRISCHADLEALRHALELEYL
# Assay: Inhibition of GST-fused human Eya2 ED (253 to 538 residues) expressed in Escherichia coli at […] pre-incubated for 10 mins followed by OMFP substrate addition and further incubated for 30 mins by fluorescence based assay
compound,measurement,value
O=[As]c1ccccc1 (stereo unspecified),inhibition,inactive

# The source made the active and inactive calls. No cut-off for these calls is given here.
